Consider 1 substance from PMC7673538 (PLoS Biology, 2020).

Sequences of proteins named here, by UniProt entry; tags and fusion partners are left off. Residues count along the entry.
UniProt P03313, 1216-1429: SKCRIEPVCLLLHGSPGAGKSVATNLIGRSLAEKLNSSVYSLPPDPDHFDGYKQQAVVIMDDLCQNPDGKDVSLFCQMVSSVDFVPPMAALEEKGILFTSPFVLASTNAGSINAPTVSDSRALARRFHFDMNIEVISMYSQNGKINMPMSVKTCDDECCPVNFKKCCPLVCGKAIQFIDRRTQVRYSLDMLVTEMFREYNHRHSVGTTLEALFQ

The assay concerns the target CV-B3 2C protein (Coxsackievirus B3, UniProt P03313). It counts as binding.

In the case of BF738735, the “delta TM, Average” value worked out at 0.4933.
